Compound potency records, mixed from different reports. Data source: NIAID ChemDB in PubChem.

Shared fields: whole-cell or culture tests; species: HIV-1; measure: EC50

ECn: concentration that inhibits the pathogen or its effect by n%. An empty or dashed field is not shown. Lines come from different laboratories, so protocols vary. Two numbers with a dash give a range or band.

| SMILES | read by | mutations | cells | strain | result |
|---|---|---|---|---|---|
| CCCc1cc(=O)oc2c3c(c4c(c12)OC(C)(C)CC4)O[C@H](C)[C@@H](C)C3=O | cytopathic effect / XTT |  | CEM + CEM-SS | IIIB | 1 µM |
| N=C(N)c1cccc(OCc2ccc(Br)cc2)c1 | β-galactosidase / cell fusion |  | HUT4-3/SX22-1 |  | >10 µM |
| NS(=O)(=O)c1ccc(NC(=O)c2ccccc2Sc2ccccc2C(=O)Nc2ccc(S(N)(=O)=O)cc2)cc1 | XTT |  | CEM |  | >100 µM |
| CC(C)C1=C2[C@H]3CC[C@@H]4[C@@]5(C)CC[C@H](OC(=O)[C@H]6C[C@@H](C(=O)O)C6(C)C)C(C)(C)[C@@H]5CC[C@@]4(C)[C@]3(C)CC[C@@]2([C@@H](O)CNC[C@@H]2CCCN2)CC1=O | p24 / ELISA |  | MT-2 | 92HT599 | <1 µM |
| N#Cc1c(N)c2cc(Br)ccc2n(-c2ccc([N+](=O)[O-])cc2)c1=O | GFP / reporter gene |  | MT-4 | IIIB | >100 µM |
| COc1cnc(NC(=O)CSc2nnc(N)s2)[n+](OC)c1 | p24 / ELISA / antigen |  | MT-4 | IIIB | 7.5 µM |
| O=C1Cc2ccc(-c3ccc(F)c(F)c3)cc2C(=O)N1O | cytopathic effect / absorbance |  | CEM-SS | IIIB | >10 µM |
| CC(C)CC(NC(=O)OC(C)(C)C)C(=O)N1CCC(O)C1 | syncytia / trypan blue |  | MT-4 |  | >100 µM |
| O=C1Cc2cc(-c3cc4ccccc4o3)ccc2C(=O)N1O | cytopathic effect / absorbance |  | CEM-SS | IIIB | >10 µM |
| CC[C@H](C)[C@H](NC(=O)c1ccccc1SSc1ccccc1C(=O)N[C@H](C(=O)O)[C@@H](C)CC)C(=O)O | XTT |  | CEM |  | 5 µM |
| CCOC(=O)CCNC(=O)Nc1cccc2c(C(=O)C(=O)N3CC/C(=C(\C#N)c4ccccc4)C[C@H]3C)c[nH]c12 | luciferase / reporter gene |  | HeLa |  | <1 µM |
| CC1(C)[C@@H](O[C@H]2O[C@H](C(=O)O)[C@@H](O)[C@H](O)[C@H]2O[C@@H]2O[C@H](C(=O)O)[C@@H](O)[C@H](O)[C@H]2O)CC[C@]2(C)[C@H]3C(=O)C=C4[C@@H]5C[C@@](C)(C(=O)O)CC[C@]5(C)CC[C@@]4(C)[C@]3(C)CC[C@@H]12 | plaque count |  | MT-4 | IIIB | <150 µM |
| CC(C)C1=C2[C@H]3CC[C@@H]4[C@@]5(C)CC[C@H](OC(=O)[C@H]6C[C@@H](C(=O)O)C6(C)C)C(C)(C)[C@@H]5CC[C@@]4(C)[C@]3(C)CC[C@@]2([C@@H](O)CNCC(C)(CN)NC(=O)c2ccc(Cl)cc2)CC1=O | p24 / ELISA |  | MT-2 | 92HT599 | <1 µM |
| COc1ccc2c(c1)CCC/C2=N\OC(=O)Nc1ccccc1-c1ccccc1 | cytopathic effect / XTT / ELISA |  | MT-2 | IIIB | >100 µg/mL |
| CC(C)C1=C2[C@H]3CC[C@@H]4[C@@]5(C)CC[C@H](OC(=O)[C@H]6C[C@@H](C(=O)O)C6(C)C)C(C)(C)[C@@H]5CC[C@@]4(C)[C@]3(C)CC[C@@]2([C@@H](O)CNC[C@@H]2CCCCN2)CC1=O | p24 / ELISA |  | MT-2 | 92HT599 | <1 µM |
| O=C(Nc1ccc(Br)cc1)c1ccccc1SSc1ccccc1C(=O)Nc1ccc(Br)cc1 | XTT |  | CEM |  | 17 µM |
| N#Cc1cc2ccc(O[C@H]3CCNC3)cc2n(-c2ccc([N+](=O)[O-])cc2)c1=O | GFP / reporter gene |  | MT-4 | IIIB | 1.5 µM |
| COC(=O)[C@@H](NC(=O)[C@@H](NC(=O)CNC[C@H](O)[C@H](Cc1ccccc1)NC(=O)[C@H](C)NC(=O)OCc1ccccc1)C(C)C)C(C)C | virus yield |  | MOLT-4 | IIIB | 3 µM |
| Nc1nnc(SCC(=O)Nc2cc(F)ccc2F)s1 | p24 / ELISA / antigen |  | MT-4 | IIIB | 16.1 µM |
| CN1CCN(S(=O)(=O)c2cc(F)ccc2CNC(=O)c2nc3n(c(=O)c2O)CCCOC32CCN(C(=O)OCc3ccccc3)CC2)CC1 | luciferase / reporter gene |  | MT-2 | NL4-3 | 0.01–0.1 µM |
| CC(C)C1=C2[C@H]3CC[C@@H]4[C@@]5(C)CC[C@H](OC(=O)[C@H]6C[C@@H](C(=O)O)C6(C)C)C(C)(C)[C@@H]5CC[C@@]4(C)[C@]3(C)CC[C@@]2(CCNCC(F)(F)NC(=O)c2ccc(Cl)cc2)CC1=O | p24 / ELISA |  | MT-2 | 92HT599 | <1 µM |
| CC1(C)C(c2ccc(C(=O)O)cc2)=CC[C@]2(C)CN(C(=O)c3ccccc3-c3nc4c(Cl)cc(Cl)cc4[nH]3)CC=C12 | luciferase / luminescence | Renilla luciferase reporter Gag P373S | MT-2 | NL4-3 | >3 µM |
| N=C(N)c1cccc(OCc2ccccc2)c1 | β-galactosidase / cell fusion |  | HUT4-3/SX22-1 |  | >10 µM |
| Nc1nc2c(ncn2CCOCP(=O)(O)O)c(=O)[nH]1 | plaque count |  |  |  | 0.01 µM |
| CCCCCCCCCCCC[C@@H]1OC(=O)[C@@H](C)[C@@H]1C(=O)O | cytopathic effect / syncytia |  | C8166 | IIIB | 0.12 µM |
| C[C@@H]1CN(C(=O)c2ccccc2)CCN1C(=O)C(=O)c1c[nH]c2c(NC(=O)NCCCCCCCCNC(=O)Nc3cccc(B(O)O)c3)cccc12 | luciferase / reporter gene |  | HeLa |  | <1 µM |
| NC(N)=Nc1cccc(OCc2ccc(Cl)cc2)c1 | β-galactosidase / cell fusion |  | HUT4-3/SX22-1 |  | >10 µM |
| Cn1ccc(=O)c2cnc(-c3ccncc3)nc21 | p24 / trypan blue |  | H9 | IIIB | 55 µM |
| O=C1CCN(C(=O)[C@H](Cc2ccccc2)NC(=O)N(c2ccccc2)c2ccccc2)C1 | syncytia / trypan blue |  | MT-4 |  | >100 µM |
| COc1cccc2[nH]cc(C(=O)C(=O)N3CCN(C(=O)c4ccccc4)C[C@H]3C)c12 | virus yield |  | MT-2/CXCR4 | MN | 0.844 µM |
| N=C(N)c1cccc(OCc2ccc(Cl)cc2)c1 | β-galactosidase / cell fusion |  | HUT4-3/SX22-1 |  | >10 µM |
| O=C1CCN(C(=O)[C@H](Cc2ccccc2)NC(=O)c2ccccc2)C1 | syncytia / trypan blue |  | MT-4 |  | >50 µM |
| O=C1Cc2ccc(-c3cccs3)cc2C(=O)N1O | cytopathic effect / absorbance |  | CEM-SS | IIIB | >10 µM |
| NS(=O)(=O)c1ccc(NC(=O)c2ccccc2O)cc1 | XTT |  | CEM |  | >100 µM |
| Cc1ncnn1-c1cc(F)ccc1CNC(=O)c1nc2n(c(=O)c1O)CCOC21CCN(C(=O)OC(C)C)C1 | luciferase / reporter gene |  | MT-2 | NL4-3 | 0.01–0.1 µM |
| COC(=O)[C@@H](NC(=O)[C@@H](NC(=O)CNC[C@H](O)[C@H](Cc1ccccc1)NC(=O)[C@H](C)NC(=O)[C@H](C)NC(=O)OCc1ccccc1)C(C)C)C(C)C | virus yield |  | MOLT-4 | IIIB | 2.1 µM |
| CCCCCn1ccc(=O)c2cnc(-c3ccncc3)nc21 | p24 / trypan blue |  | H9 | IIIB | 3 µM |
| CC(C)C1=C2[C@H]3CC[C@@H]4[C@@]5(C)CC[C@H](OC(=O)[C@H]6C[C@@H](C(=O)O)C6(C)C)C(C)(C)[C@@H]5CC[C@@]4(C)[C@]3(C)CC[C@@]2([C@@H](O)CNC(=O)c2ccc(Cl)c(Cl)c2)CC1=O | p24 / ELISA |  | MT-2 | 92HT599 | <1 µM |
| O=C1Cc2ccc(-c3ccco3)cc2C(=O)N1O | cytopathic effect / absorbance |  | CEM-SS | IIIB | >10 µM |
| CS(=O)(=O)N1CCC2(CC1)OCCCn1c2nc(C(=O)NCc2ccc(F)cc2)c(O)c1=O | luciferase / reporter gene |  | MT-2 | NL4-3 | 0.001–0.01 µM |
| Cc1[nH]c2ccccc2c1CC(=O)N[C@@H](Cc1ccccc1)C(=O)N(C)c1ccccc1 | entry / luminescence |  | MT-4 | NL4-3 | 0.42 µM |
| Cc1ccc(-n2c(=O)c(C#N)c(N)c3ccc(Cl)cc32)cn1 | GFP / reporter gene |  | MT-4 | IIIB | 6.17 µM |
| CC(C)C1=C2[C@H]3CC[C@@H]4[C@@]5(C)CC[C@H](OC(=O)[C@H]6C[C@@H](C(=O)O)C6(C)C)C(C)(C)[C@@H]5CC[C@@]4(C)[C@]3(C)CC[C@@]2(CC(=O)NC2(c3ccc(Cl)cc3)CNC2)CC1=O | p24 / ELISA |  | MT-2 | 92HT599 | <1 µM |
| O=C(CSc1nc2ccccc2[nH]1)Nc1ccccc1 | p24 / ELISA / antigen |  | MT-4 | IIIB | 5.07 µM |
| CCCCCC(O)/C=C/C=C\CCCCCC[C@@H]1C(=O)O[C@@](O)(CO)[C@H]1O | cytopathic effect / syncytia |  | C8166 | IIIB | 0.18 µM |
| O=C(CSc1nc2ccccc2[nH]1)Nc1cc(C(F)(F)F)cc(C(F)(F)F)c1 | p24 / ELISA / antigen |  | MT-4 | IIIB | 2.2 µM |
| CC(C)(C)OC(=O)N[C@@H](Cc1ccccc1)C(=O)N1CCC[C@H]1C(=O)O | syncytia / trypan blue |  | MT-4 |  | >100 µM |
| Cc1ccc(F)cc1S(=O)(=O)N1CCC2(CC1)OCCn1c2nc(C(=O)NCc2ccc(F)cc2-n2cncn2)c(O)c1=O | luciferase / reporter gene |  | MT-2 | NL4-3 | 0.001–0.01 µM |
| CC(=O)NCc1cccc(-c2ccc3c(N)c(C#N)c(=O)n(-c4ccc(C)c(C#N)c4)c3c2)c1 | GFP / reporter gene |  | MT-4 | IIIB | 7.05 µM |
| O=C(N/N=C/c1ccc(O)cc1)Nc1cccc2nsnc12 | cell fusion / luminescence |  | Cf2Th-CD4/CCR5 | YU2 | 8.6 µM |
| CCn1ccc(=O)c2ccc(-c3ccncc3)nc21 | p24 / trypan blue |  | H9 | IIIB | 15 µM |
| O=C1Cc2ccc(-c3cc4ccccc4o3)cc2C(=O)N1O | cytopathic effect / absorbance |  | CEM-SS | IIIB | >10 µM |
| C[C@@H]1CN(C(=O)c2ccccc2)CCN1C(=O)C(=O)c1c[nH]c2c(NC(=O)NCCCCNC(=O)Nc3cccc(B(O)O)c3)cccc12 | luciferase / reporter gene |  | HeLa |  | <1 µM |
| CC1(C)C(c2ccc(C(=O)O)cc2)=CC[C@]2(C)CN(C(=O)c3ccccc3-c3nc4ccc(F)c(F)c4o3)CC=C12 | luciferase / luminescence | Renilla luciferase reporter Gag P373S | MT-2 | NL4-3 | >3 µM |
| O=c1cc[nH]c2nc(-c3ccncc3)ncc12 | p24 / trypan blue |  | H9 | IIIB | 60 µM |

The first 8 rows once more:

SMILES | read by | mutations | cells | strain | result
CCCc1cc(=O)oc2c3c(c4c(c12)OC(C)(C)CC4)O[C@H](C)[C@@H](C)C3=O | cytopathic effect / XTT |  | CEM + CEM-SS | IIIB | 1 µM
N=C(N)c1cccc(OCc2ccc(Br)cc2)c1 | β-galactosidase / cell fusion |  | HUT4-3/SX22-1 |  | >10 µM
NS(=O)(=O)c1ccc(NC(=O)c2ccccc2Sc2ccccc2C(=O)Nc2ccc(S(N)(=O)=O)cc2)cc1 | XTT |  | CEM |  | >100 µM
CC(C)C1=C2[C@H]3CC[C@@H]4[C@@]5(C)CC[C@H](OC(=O)[C@H]6C[C@@H](C(=O)O)C6(C)C)C(C)(C)[C@@H]5CC[C@@]4(C)[C@]3(C)CC[C@@]2([C@@H](O)CNC[C@@H]2CCCN2)CC1=O | p24 / ELISA |  | MT-2 | 92HT599 | <1 µM
N#Cc1c(N)c2cc(Br)ccc2n(-c2ccc([N+](=O)[O-])cc2)c1=O | GFP / reporter gene |  | MT-4 | IIIB | >100 µM
COc1cnc(NC(=O)CSc2nnc(N)s2)[n+](OC)c1 | p24 / ELISA / antigen |  | MT-4 | IIIB | 7.5 µM
O=C1Cc2ccc(-c3ccc(F)c(F)c3)cc2C(=O)N1O | cytopathic effect / absorbance |  | CEM-SS | IIIB | >10 µM
CC(C)CC(NC(=O)OC(C)(C)C)C(=O)N1CCC(O)C1 | syncytia / trypan blue |  | MT-4 |  | >100 µM